Assays:
[1] = tested on: MRC-5 normal human lung fibroblasts; test: Toxicity assay, Alamar blue, Example 1; type: cell-based; settings: IC50 MRC-5 versus MIC
Procedure: The normal human lung fibroblasts MRC-5 were cultured in minimal essential medium (MEM, Invitrogen) supplemented with 10% foetal calf serum (FCS), 1% L-glutamine-penicillin-streptomycin, 2% sodium bicarbonate, 1% non-essential amino acids (NEAA) and 1% sodium pyruvate. The cell line was maintained at 37° C. in 5% CO2 as an adherent monolayer and was passaged upon reaching confluence by standard cell culture techniques. MRC-5 cells were seeded at 2×10^4 cells per well in 96-well plates to ensure full confluence (quiescence). Cells were treated 24 h after seeding with 0.1 to 1000 μM of compounds. After 72 h drug incubation, the treated media was replaced with fresh media containing 10% Alamar blue and the cells were incubated for another 6 h. The metabolic activity was detected by spectrophotometric analysis by assessing the absorbance of Alamar blue as previously described by Pasquier et. al (see Pasquier, E.; Ciccolini, J.; Carre, M.; Giacometti, S.; Fanciullino, R.; Pouchy, C.; Montero, M.-P.; Serdjebi, C.; Kavallaris, M.; André, N. Oncotarget 2011, 2, 797).
Cell proliferation was determined and expressed as a percentage of untreated control cells. The determination of IC50 values was performed using GraphPad Prism 6 (San Diego, Calif., USA). […]

[2] = tested on: MRC-5 normal human lung fibroblasts; test: Cytotoxicity assay, Alamar blue, Example 2; type: cell-based; settings: IC50 value divided by MIC value
Procedure: The in vitro toxicity of the compounds (24a, 38b, 42d, 43d) was determined against MRC-5 normal human lung fibroblasts using the Alamar blue assay (see O'Brien, J.; Wilson, I.; Orton, T.; Pognan, F. Eur. J. Biochem. 2000, 267 (17), 5421-5426). A dose-response curve for each compound was generated to determine the IC50 values (concentration of compound which killed half of the cells) and the IC50 values were then used to determine the therapeutic window (IC50 value divided by MIC value) and specificity of the compounds (Table 3).

Row | SMILES | IC50 against MRC-5 relative to MIC (fold lower toxicity to mammalian cells) [1] | Therapeutic window [2]
1 | COC(=O)[C@H](CCCNC(=N)N)NC(=O)[C@H](CCCNC(=N)N)NC(=O)C(=O)c1ccccc1NC(=O)c1ccc2ccccc2c1.Cl.Cl [Compound 65, Methyl (2-(2-(2-naphthamido)phenyl)-2-oxoacetyl)arginylargininate dihydrochloride] | greater than 24 fold | 
2 | CCCCCCCCS(=O)(=O)Nc1ccc(Br)cc1C(=O)C(=O)NCCN(C)C.Cl [Compound 38b, 2-(2-(5-Bromo-2-(octylsulfonamido)phenyl)-2-oxoacetamido)-N,N-dimethylethan-1-aminium chloride] |  | 1.20
3 | CCCCCCCCS(=O)(=O)Nc1ccc(Br)cc1C(=O)C(=O)NCCCNC(=N)N.Cl [Compound 43d, 2-(5-Bromo-2-(octylsulfonamido)phenyl)-N-(3-guanidinopropyl)-2-oxoacetamide hydrochloride] |  | 14.83
4 | COC(=O)[C@H](CCCNC(=N)N)NC(=O)[C@H](CCCNC(=N)N)NC(=O)C(=O)c1cc(Br)ccc1NC(=O)c1ccc2ccccc2c1.Cl.Cl [Compound 66, Methyl (2-(2-(2-naphthamido)-5-bromophenyl)-2-oxoacetyl)arginylargininate dihydrochloride] | > 48 fold | 
5 | CCCCCCCCS(=O)(=O)Nc1ccccc1C(=O)C(=O)NCCCNC(=N)N.Cl [Compound 42d, N-(3-Guanidinopropyl)-2-(2-(octylsulfonamido)phenyl)-2-oxoacetamide hydrochloride] |  | 7.94
